The target in the experiment is T1, 6xHis-RelJ (Rv3357), purified (M. tuberculosis, UniProt P9WF25 1-91).
T1 construct: also called his-tagged RelJ; pET-3357; not shown: His6, N-terminal, kept
T1 sequence: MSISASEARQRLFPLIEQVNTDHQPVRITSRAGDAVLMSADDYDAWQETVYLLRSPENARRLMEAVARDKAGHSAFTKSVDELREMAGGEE
Kind of experiment: pull-down. The settings on record: both partners purified.

B1: GST-RelK (Rv3358), purified (natural protein)
chain: not shown
notes: also called GST-tagged RelK; pGEX-3358
For the molecule B1, the binding result is “binds”.
